Compound potency records, mixed from different reports. Data source: NIAID ChemDB in PubChem.

Common to all: whole-cell or culture tests; organism: HIV-1

Blank or dashed fields: not listed here.

SMILES,read by,conditions,endpoint,cells,strain,changes,result
CO[P@](=O)(c1cc(C)cc(/C=C/C#N)c1)c1c(C(N)=O)[nH]c2ccc(Cl)c(F)c12,ELISA,,EC50,MT-4,NL4-3,K103N,0.0014 µM
Cc1cn([C@H]2C=C[C@@H](COP(=O)(SCCOC(=O)C(C)(C)C)SCCOC(=O)C(C)(C)C)O2)c(=O)[nH]c1=O,,,EC50,CEM + CEM TK-,,,0.0059 µM
CCc1c(Sc2ccccn2)n(COCc2ccccc2)c(=O)[nH]c1=O,XTT,,EC50,CEM,,,0.0009 µM
COc1cc(C[C@H](C)[C@H](C)Cc2ccc(O)c(O)c2)ccc1O,p24,,EC50,PBMC,IIIB,,0.8 µg/mL
CCCCCOC(=O)C[C@H](NP(=O)(CO[C@@H](CF)Cn1ccc2c(=O)[nH]c(N)nc21)Oc1ccccc1)C(=O)OCCCCC,luciferase,,EC50,TZM-bl,BaL,,7.95 µM
COC1CCC(OC2CC(C)(C3CCC(C4OC(C)(O)C(C)CC4C)O3)OC2C2(C)CC(C)C3(OC(CC4OC(O)(C(C)C(=O)O)C(C)C(OC)C4OC)CC(OC)C3C)O2)OC1C,RT activity,,EC50,U-937,IIIB,,1.35 µg/mL
O=C(O)[C@@H](C1CCCCC1)N1C[C@H](CN2CCC(CCCc3ccccc3)CC2)[C@@H](c2ccccc2)C1,p24,,EC50,PBMC,BaL,,<0.093 µM
CCCc1c([Se]c2ccccc2)n(COCCO)c(=O)[nH]c1=O,p24,,EC50,MT-2,Cat #3 strain,,4.1 µM
O=C(O)[C@@H](C1CCCCC1)N1C[C@H](CN2CCC(c3cc(-c4cccc5ccccc45)n[nH]3)CC2)[C@@H](c2ccccc2)C1,β-galactosidase,,EC90,HeLa,BaL,,>0.3 µM
CC(=O)N1CCC(NC(=O)c2cc(O)c(O)c(O)c2)CC1,MTT,,EC50,MT-4,IIIB,,>42.6 µM
Cc1ccc(-c2ccc3c(c2)C=C(C(=O)Nc2ccc(C[N+](C)(C)C4CCOCC4)cc2)CCC3)cc1,entry / luminescence,,EC50,TZM-bl,,,3.65 µM
Cc1cc(C)cc(S(=O)(=O)N2CCC(NC(=O)c3cc(O)c(O)c(O)c3)CC2)c1,MTT,,EC50,MT-4,IIIB,,>74 µM
CCOCn1c(Sc2ccc3ccccc3c2)c(C(C)C)c(=O)[nH]c1=O,cytopathic effect / MTT,,EC50,MT-4,IIIB,,2.65 µM
CCCCn1nc(Cc2ccccc2)cc1C1CCN(C[C@H]2CN([C@@H](C(=O)O)C3CCCCC3)C[C@@H]2c2ccccc2)CC1,β-galactosidase,,EC50,HeLa,BaL,,<0.011 µM
CCc1c(Sc2cccc3ccccc23)n(COCc2cccc(F)c2)c(=O)[nH]c1=O,cytopathic effect / MTT,,EC50,MT-4,IIIB,,0.21 µM
CC[C@@H](C(=O)[C@@H](C)[C@@H](O)[C@H](C)[C@@H]1O[C@@H]([C@@H](CC)C(=O)O)CC[C@@H]1C)[C@H]1O[C@@]2(C=C[C@@H](O)[C@@]3(CC[C@@](C)([C@H]4CC[C@](O)(CC)[C@H](C)O4)O3)O2)[C@H](C)C[C@@H]1C,RT activity,,EC50,U-937,IIIB,,0.09 µg/mL
Cc1cn([C@H]2C[C@H](N=[N+]=[N-])[C@@H](CO)O2)c(=O)[nH]c1=O,cytopathic effect,,EC50,CEM,IIIB,,0.03 µM
COc1ccc(C[C@H](NC(=O)c2cccc(O)c2C)[C@H](O)C(=O)N2CSC(C)(C)[C@H]2C(=O)NCc2ccccc2C)cc1,cytopathic effect / XTT,15% FBS,EC50,CEM,IIIB,,0.0066 µM
COc1cccc(C(=O)N2CCC(NC(=O)c3cc(O)c(O)c(O)c3)CC2)c1,MTT,,EC50,MT-4,IIIB,,>76.6 µM
S=C(NCCc1cccs1)Nc1ccc(Br)cn1,p24,,EC50,PBMC,X267-2 Clinical isolate NRTI-resistant,RT-M41L T215Y,0.0003 µM
CC(C)OC(=O)OCOP(=O)(CO[C@H](C)Cn1cnc2c(N)ncnc21)OCOC(=O)OC(C)C,luciferase,,EC50,PBMC,BaL,,0.068 µM
O=C(NC1CCN(S(=O)(=O)c2ccc(F)cc2)CC1)c1cc(O)c(O)c(O)c1,MTT,,EC50,MT-4,IIIB,,>178.4 µM
Fc1cccc(F)c1C1SCc2nc3ccccc3n21,cytopathic effect / XTT,,EC50,CEM + CEM-SS,C,,1.14 µM
CN(C)C(=O)N1CCC(NC(=O)c2cc(O)c(O)c(O)c2)CC1,MTT,,EC50,MT-4,IIIB,,>34.3 µM
Cc1cn([C@H]2C=C[C@@H](CO)O2)c(=O)[nH]c1=O,,,EC50,CEM + CEM TK-,,,15 µM
CC[C@@H](C(=O)[C@@H](C)[C@@H](O)[C@H](C)CCc1ccc(C)c(O)c1C(=O)O)[C@H]1O[C@](CC)([C@H]2CC[C@](O)(CC)[C@H](C)O2)C[C@@H]1C,RT activity,,EC50,U-937,IIIB,,0.2 µg/mL
COc1ccc(NC(=O)CSc2nnnn2-c2c(C)cc(C)cc2C)cc1Cl,β-galactosidase,,EC50,HeLa CD4,NL4.3-XCS,M184V (3TC-resistant),0.382 µM
CC[C@@H](O)[C@]1(C)C[C@H](C)[C@@](O)([C@H]2C[C@H](C)[C@H]([C@]3(C)CC[C@H]([C@@H]4CC[C@@]5(O[C@H]([C@@H](C)[C@@H](OC)[C@H](C)C(=O)O)[C@H](C)[C@@H](OC)[C@H]5C)O4)O3)O2)O1,RT activity,,EC50,H9,IIIB,,1.63 µg/mL
CCOCn1c(Sc2ccc3ccccc3c2N)c(CC)c(=O)[nH]c1=O,cytopathic effect / MTT,,EC50,MT-4,IIIB,,7.06 µM
CC(c1nc(C(=O)NCc2ccc(F)cc2)c(O)c(=O)[nH]1)N(C)C,p24,10% FBS,EC50,MT-4,,,<0.125 µM
COc1cccc(-c2nnc(-c3ccc4cccc(OC)c4n3)o2)c1,luminescence,,EC50,TZM-bl,VB59,,>900 µM
O=c1[nH]cnc2c1ncn2[C@H]1CC[C@@H](CO)O1,MTT,,EC50,MT-4,IIIB,,76 µM
N#Cc1ccc(-c2cc(C3CCN(C[C@H]4CN([C@@H](C(=O)O)C5CCCCC5)C[C@@H]4c4ccccc4)CC3)[nH]n2)cc1,β-galactosidase,,EC90,HeLa,BaL,,>0.3 µM
Cc1c(Sc2ccccc2)n(COCCO)c(=O)[nH]c1=O,cytopathic effect / MTT,,EC50,MT-4,IIIB,,5.06 µM
CCOc1ccc(C[C@H](NC(=O)c2cccc(O)c2C)[C@H](O)C(=O)N2CSC(C)(C)[C@H]2C(=O)NCc2ccccc2C)cc1,cytopathic effect / XTT,15% FBS,EC50,CEM,IIIB,,0.0065 µM
Cc1cn([C@H]2C[C@H](N=[N+]=[N-])[C@@H](CO)O2)c(=O)[nH]c1=O,luminescence,,EC50,TZM-bl,VB59,,0.03 µM
COc1cccc(C[C@H](NC(=O)c2cccc(O)c2C)[C@H](O)C(=O)N2CSC(C)(C)[C@H]2C(=O)NCc2c(C)cccc2C)c1,RT activity,,EC50,PBMC,1026-40 PI-resistant,PR-L10I M46I I54V L63P A71V V82A L90M,0.0089 µM
CN(C)Cc1nc(C(=O)NCc2ccc(F)cc2)c(O)c(=O)[nH]1,p24,10% FBS,EC95,MT-4,,,>1 µM
CCS(=O)(=O)N1CCC(NC(=O)c2cc(O)c(O)c(O)c2)CC1,MTT,,EC50,MT-4,IIIB,,>36.6 µM
CCc1cc(CCc2nc3c(Cl)ccc(Cl)c3o2)c(=O)[nH]c1C,p24,,EC50,H9,A17,RT-K103N Y181C,<1.5 µM
O=C(NCc1ccc(F)cc1)c1nc[nH]c(=O)c1O,p24,50% human serum,EC95,MT-4,,,>10 µM
COc1ccccc1C(=O)N1CCC(NC(=O)c2cc(O)c(O)c(O)c2)CC1,MTT,,EC50,MT-4,IIIB,,>147.2 µM
COc1ccc(Sc2nc(N)nc3c2ncn3C[C@@H](CF)OP(=O)(O)O)cc1,luciferase,,EC50,PBMC,BaL,,>100 µM
Cc1ccc(-n2nnnc2-c2cn[nH]c2-c2cccc(F)c2)cc1,β-galactosidase,,EC50,HeLa CD4,NL4.3-XCS,41-215 (AZT-resistant),0.4 µM
COCn1c(Sc2ccc3ccccc3c2)c(C(C)C)c(=O)[nH]c1=O,cytopathic effect / MTT,,EC50,MT-4,IIIB,,4.69 µM
CCCc1cc(=O)oc2c3c(c4c(c12)OC(C)(C)C=C4)O[C@@H](C)[C@H](C)[C@H]3O,cytopathic effect / MTT,,EC50,MT-2,G910-6,,>1 µg/mL
CCc1cc(CCc2nc3c(Cl)ccc(Cl)c3o2)c(=S)[nH]c1C,p24,,EC95,H9,IIIB,,0.1 µM
Cc1cccc(C)c1OCC(=O)N[C@@H](Cc1ccccc1)[C@@H](O)C[C@H](Cc1ccccc1)NC(=O)[C@H](C(C)C)N1CCCNC1=O,RT activity,,EC50,PBMC,1002-60 PI-resistant,PR-L10I M46I I54V L63P V82F L90M,0.573 µM
N#CC1C=Cc2ccccc2C1C(=O)/C=C/c1ccccc1,β-galactosidase,,EC50,HeLa CD4,NL4.3-XCS,K103N (NVP),1.534 µM
Nc1nc(=O)n([C@@H]2CS[C@H](CO)O2)cc1F,RT activity,,EC50,PBMC,M6 (AZT-resistant),,0.002 µM
CC(C)OC(=O)[C@H](C)N[P@](=O)(CO[C@H](C)Cn1cnc2c(N)ncnc21)Oc1ccccc1,luciferase,,EC50,PBMC,BaL,,0.0024 µM
CC(C)OC(=O)[C@H](C)N[P@](=O)(CO[C@H](C)Cn1cnc2c(N)ncnc21)Oc1ccccc1,,,EC50,,,,0.005 µM
CCc1c(Sc2ccc3ccccc3c2)n(COCc2ccccc2)c(=O)[nH]c1=O,cytopathic effect / MTT,,EC50,MT-4,IIIB,,0.65 µM
Cc1ccccc1CNC(=O)[C@H]1N(C(=O)[C@@H](O)[C@H](Cc2ccccc2)NC(=O)c2cccc(O)c2C)CSC1(C)C,cytopathic effect / XTT,15% FBS,EC50,CEM,IIIB,,0.026 µM
Nc1nc2c(ccn2C[C@@H](CF)OCP(=O)(O)O)c(=O)[nH]1,luciferase,,EC50,TZM-bl,BaL,,>100 µM
Cc1cc(C)c(S(=O)(=O)N2CCC(NC(=O)c3cc(O)c(O)c(O)c3)CC2)c(C)c1,MTT,,EC50,MT-4,IIIB,,>19.9 µM
CCc1c(Sc2cccc3ccccc23)n(COCc2ccc(F)cc2)c(=O)[nH]c1=O,cytopathic effect / MTT,,EC50,MT-4,IIIB,,0.092 µM

5 of the rows above, restated:

SMILES	read by	conditions	endpoint	cells	strain	changes	result
CCc1c(Sc2cccc3ccccc23)n(COCc2ccc(F)cc2)c(=O)[nH]c1=O	cytopathic effect / MTT		EC50	MT-4	IIIB		0.092 µM
COc1cccc(-c2nnc(-c3ccc4cccc(OC)c4n3)o2)c1	luminescence		EC50	TZM-bl	VB59		>900 µM
CCCCCOC(=O)C[C@H](NP(=O)(CO[C@@H](CF)Cn1ccc2c(=O)[nH]c(N)nc21)Oc1ccccc1)C(=O)OCCCCC	luciferase		EC50	TZM-bl	BaL		7.95 µM
S=C(NCCc1cccs1)Nc1ccc(Br)cn1	p24		EC50	PBMC	X267-2 Clinical isolate NRTI-resistant	RT-M41L T215Y	0.0003 µM
CCCc1cc(=O)oc2c3c(c4c(c12)OC(C)(C)C=C4)O[C@@H](C)[C@H](C)[C@H]3O	cytopathic effect / MTT		EC50	MT-2	G910-6		>1 µg/mL

ECn is the concentration giving n% inhibition of infection, replication or growth. Rows are shuffled and stem from different studies.